Sequence variants of PSTVd loop 1 after infection

From the data files of Wu et al. 2024, doi:10.1371/journal.ppat.1012142.

The pool varies loop 1 of the PSTVd intermediate strain in the pattern CNNNNG; wild type is CCUCGG (5' to 3', with the closing base pair).

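Three N. benthamiana plants were inoculated with the whole mutant pool. Samples came from the inoculated region at 5 days, the leaf margin at 10 and upper systemic leaves at 12.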

Numbers give reads per thousand; 0 = not seen among the reads, higher = more abundant.
Each value is the mean of three plants.
"Pool" is the share in the plasmid pool used as inoculum, on the same scale.
The inoculated region was read from the minus strand, the other sites from the plus strand.
IR is the inoculated region, LM the leaf margin, Sys the systemic leaves.
Sequences that differ at fixed positions probably stem from PCR or sequencing errors, and defective variants can be carried along by functional ones.

sequence,pool,IR,LM,Sys
CCAACG,3.17,2.99,0.00704,0
CGCGCG,5.03,2.99,0.00704,0.00548
CUGUUG,3.78,2.83,0,0
CGCCCG,3.47,2.90,0.00704,0
CGAAUG,4.60,2.77,0.0168,0.0274
CGGCUG,5.39,3.08,0.0102,0.0334
CCUCAG,3.28,2.95,2.93,0.144
CGGCGG,3.46,2.73,0.00663,0.00548
CUAGCG,3.85,3.10,0,0
CUUUUG,4.24,2.79,0.0172,0.00548
CAGCGG,3.69,2.75,0.0133,0
CCUGGG,3.34,3.27,0.276,6.65
CAGUCG,3.89,3.12,0,0.00548
CUAUGG,4.45,2.70,0.00663,0.0219
AAUAUG,0.0131,0,0,0
CCCGAG,3.56,2.59,0.0102,0
CCUGAG,4.73,3.04,0.0102,0.0110
CAGGGG,4.66,2.78,0.0238,0.0274
CUGUCG,4.16,2.89,0.0274,0.00548
CACCAG,3.93,2.89,0,0.00548
CUUCCG,4.43,2.96,0,0.0110
CUGAUG,4.11,2.76,0,0.00548
CCUAAG,3.43,2.76,0,0
CCGUAG,3.77,2.86,0.0168,0.00548
CGAUCG,5.19,2.70,0.0137,0.00548
CGAGUG,3.52,2.90,0.0168,0.00548
CGUGUG,4.14,2.89,0,0.00548
CUGCCG,3.34,1.96,0,0
CCUAGG,3.44,9.30,22.8,12.2
CCGAGG,3.46,2.80,0.00704,0
CCAAUG,3.51,2.76,0.00704,0
CUUCGG,3.99,2.97,5.87,7.56
CGGGGG,3.71,2.53,0.0102,0.00677
CAGUAG,4.64,2.78,0.00704,0.0115
CCUCUG,5.16,4.18,15.0,21.8
GUCUAG,0.0131,0,0,0
CUCACG,3.69,2.54,0.00704,0
CAAGUU,0.0263,0,0,0
CUCGAG,3.39,2.90,0,0
CAUGCG,3.73,2.86,0,0
CCUCGU,0.355,0.780,0.712,5.83
CUAACG,3.34,2.83,0.0172,0
CUAUAG,3.73,2.87,0.00704,0.00548
CGAACG,3.90,2.96,0.0102,0.00548
CCAUGG,3.43,2.78,0.0137,0
CGCCAG,3.46,2.76,0.00663,0
CCGGGG,3.32,2.89,0.0137,0
CUCCGG,4.22,2.91,0.0203,0.0164
CAUACG,4.36,2.90,0,0.0110
GCUGGG,0.0263,0.0238,0.00704,0.0472
CCGCCG,3.92,2.68,14.3,0.395
CUAUCG,3.92,2.59,1.29,0.433
CGUUAG,5.26,2.84,0.00663,0.0493
CUUUAG,4.06,2.77,0.0102,0
CUCAGG,3.39,2.90,0,0
CAGACG,3.67,1.70,0.00663,0
CCGCAG,3.39,2.74,0.0102,0
CCACAG,3.23,2.98,0,0
CCAUUG,3.88,3.13,0,0.00548
CAAGCG,3.17,2.87,0.0102,0
CAAUAG,3.51,2.73,0.0102,0
CCUCGA,0.342,0.391,0.514,4.23
CCGGCG,3.78,2.61,0.00663,0
CGACCG,3.56,2.75,0.0102,0.0110
CAAGAG,4.27,2.96,0.0102,0
CGCUGU,0.0263,0,0,0
CUUAAG,3.06,2.87,0.00704,0
CUGGUG,4.13,2.80,0,0.00677
CUUGGG,3.46,2.85,0,0
CAUUAG,3.56,2.69,0,0.00548
CAACGG,3.88,2.89,0.0172,0
CAAUGG,3.13,2.93,0.00663,0
CGGAUG,3.94,2.83,0,0.0177
CCGCUU,0.0131,0,0,0
AUAUGG,0.0131,0,0,0

Extract of 10 entries:

CUUCGG (pool 3.99) read IR 2.97; LM 5.87; Sys 7.56.
AUAUGG (pool 0.0131) read IR 0; LM 0; Sys 0.
CAGACG (pool 3.67) read IR 1.70; LM 0.00663; Sys 0.
CAAUAG (pool 3.51) read IR 2.73; LM 0.0102; Sys 0.
CAGCGG (pool 3.69) read IR 2.75; LM 0.0133; Sys 0.
CUUCCG (pool 4.43) read IR 2.96; LM 0; Sys 0.0110.
CAAUGG (pool 3.13) read IR 2.93; LM 0.00663; Sys 0.
CUCAGG (pool 3.39) read IR 2.90; LM 0; Sys 0.
CAGUAG (pool 4.64) read IR 2.78; LM 0.00704; Sys 0.0115.
CCGCCG (pool 3.92) read IR 2.68; LM 14.3; Sys 0.395.

Samples held 32,791 to 60,834 reads, so the smallest values rest on one or two reads.
For reference, wild type rose from 20.1 per thousand in the pool to 197, 219, 222 (inoculated region), 828, 823, 779 (leaf margin) and 914, 907, 857 (systemic leaves).